Test results reported in PMC4278586.

Legend:
[1] = biological target: full-length gp120 pre-complexed with PGT124 (HIV-1 (isolate not stated) | human) (UniProt P20871); experiment: ITC
[2] = biological target: full-length gp120 monomer (HIV-1 (isolate not stated)) (UniProt P20871); experiment: ITC

Question: Which results are given for “two-domain soluble CD4 (from UniProt P01730 26-208) (domain or fragment)”?
Answer: Kd [1]: 50 nM; Kd [2]: 55 nM
